Data: ChEMBL document CHEMBL1138434, “Reversal of fluconazole resistance in multidrug efflux-resistant fungi by the Dysidea arenaria sponge sterol 9alpha,11alpha-epoxycholest-7-ene-3beta,5alpha,6alpha,19-tetrol 6-acetate” (J Nat Prod, 2003)

How the values were obtained:
Saccharomyces cerevisiae [1] = conditions: DSY 415, 25 uM
Saccharomyces cerevisiae [2] = conditions: DSY 417, 25 uM
Saccharomyces cerevisiae [3] = conditions: DSY 426, 25 uM
Saccharomyces cerevisiae [4] = conditions: DSY 416, 25 uM
Saccharomyces cerevisiae [5] = conditions: DSY 390, 25 uM

Measured: MIC

CC(C)[C@@H]1OC(=O)[C@@H](Cc2ccccc2)N(C)C(=O)[C@H](C(C)C)OC(=O)[C@@H](Cc2ccccc2)N(C)C(=O)[C@H](C(C)C)OC(=O)[C@@H](Cc2ccccc2)N(C)C1=O [BEAUVERICIN]
inactive: all assays above

Active and inactive are the calls of the source.
